Experimental findings from patent publication US20090281028A1 are described below.

Common to all, as to test: cell-based or functional assay
The target in assay [1] is human Kv1.3 channel (human), P22001.
In assay [2] the target is T1, human Kv1.1 channel (human), Q09470.
T1 chain: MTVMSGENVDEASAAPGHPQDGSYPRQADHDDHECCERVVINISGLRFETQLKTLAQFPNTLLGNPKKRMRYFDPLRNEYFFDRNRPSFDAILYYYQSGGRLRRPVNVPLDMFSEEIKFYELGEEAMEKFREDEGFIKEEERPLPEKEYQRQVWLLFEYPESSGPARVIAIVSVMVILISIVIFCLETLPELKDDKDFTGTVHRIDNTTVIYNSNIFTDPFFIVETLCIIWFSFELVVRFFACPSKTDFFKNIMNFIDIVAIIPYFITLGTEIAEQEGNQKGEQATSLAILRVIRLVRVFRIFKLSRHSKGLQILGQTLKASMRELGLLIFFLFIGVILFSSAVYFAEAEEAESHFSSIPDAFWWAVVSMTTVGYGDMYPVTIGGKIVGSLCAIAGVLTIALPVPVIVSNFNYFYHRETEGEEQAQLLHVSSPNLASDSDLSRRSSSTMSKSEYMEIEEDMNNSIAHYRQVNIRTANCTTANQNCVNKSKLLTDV

The target of assay [3] is human Kv1.3 voltage-gated potassium channel (human), P22001.

In assay [1], GVIENVKCKISRQCLEPCKKAGMRFGKCMNGKCHCTPK (modifications not checked) [OSK1 I4E] yielded a Kv1.3 IC50 (IonWorks electrophysiology) of 15.7 pM, a WB/IFNg IC50 (human whole blood) of 191 pM and a WB/IL-2 IC50 (human whole blood) of 218 pM. This molecule also yielded a Kv1.1 IC50 (IonWorks electrophysiology) in assay [2] of 3.19 pM.

In assay [1], GVIINVKCKISEQCLEPCKKAGMRFGKCMNGKCHCTPK (modifications not checked) [OSK1 R12E] displayed a Kv1.3 IC50 (IonWorks electrophysiology) of 89.7 pM, a WB/IFNg IC50 (human whole blood) of 2000 pM and a WB/IL-2 IC50 (human whole blood) of 1790 pM. In assay [2], this molecule displayed a Kv1.1 IC50 (IonWorks electrophysiology) of 193 pM.

In assay [1], GVIINVKCKIERQCLEPCKKAGMRFGKCMNGKCHCTPK (modifications not checked) [OSK1 S11E] gave a Kv1.3 IC50 (IonWorks electrophysiology) of more than 3330 pM, a WB/IFNg IC50 (human whole blood) of 16900 pM and a WB/IL-2 IC50 (human whole blood) of 39900 pM. This molecule also had a Kv1.1 IC50 (IonWorks electrophysiology) in assay [2] of more than 3330 pM.

For GVIINEKCKISRQCLEPCKKAGMRFGKCMNGKCHCTPK (modifications not checked) [OSK1 V6E], in assay [1], the Kv1.3 IC50 (IonWorks electrophysiology) stood at 17.7 pM, the WB/IFNg IC50 (human whole blood) turned out to be 68 pM and the WB/IL-2 IC50 (human whole blood) came to 48 pM. The Kv1.1 IC50 (IonWorks electrophysiology) in assay [2] is 2.43 pM.

On to GVIINVKCKISRQCLEPCKKAEMRFGKCMNGKCHCTPK (modifications not checked) [OSK1 G22E], for which, in assay [1], the Kv1.3 IC50 (IonWorks electrophysiology) was found to be 13.9 pM, the WB/IFNg IC50 (human whole blood) came out at 164 pM and the WB/IL-2 IC50 (human whole blood) came out at 109 pM. Also, in assay [2], the Kv1.1 IC50 (IonWorks electrophysiology) worked out at 2.56 pM.

The molecule GVIINVKCKISRQCLEPCEKAGMRFGKCMNGKCHCTPK (modifications not checked) [OSK1 K19E] showed a Kv1.3 IC50 (IonWorks electrophysiology) in assay [1] of 23.5 pM. For the same molecule, in assay [2], the Kv1.1 IC50 (IonWorks electrophysiology) came out at 13.7 pM.

GVIINVKCKISRQCLEPCKKAGERFGKCMNGKCHCTPK (modifications not checked) [OSK1 M23E]: in assay [1], the Kv1.3 IC50 (IonWorks electrophysiology) came out at 24.3 pM, the WB/IFNg IC50 (human whole blood) turned out to be 666 pM and the WB/IL-2 IC50 (human whole blood) stood at 606 pM. In assay [2], this molecule had a Kv1.1 IC50 (IonWorks electrophysiology) of 10.4 pM.

Regarding GVIINVKCKISRQCLEPCKEAGMRFGKCMNGKCHCTPK (modifications not checked) [OSK1 K20E], in assay [1], the Kv1.3 IC50 (IonWorks electrophysiology) was 25.4 pM. In assay [2], this molecule showed a Kv1.1 IC50 (IonWorks electrophysiology) of 5.76 pM.

For GVIINVKCKISRQCLEPCKKAGMRFGECMNGKCHCTPK (modifications not checked) [OSK1 K27E], in assay [1], the Kv1.3 IC50 (IonWorks electrophysiology) is more than 3330 pM, the WB/IFNg IC50 (human whole blood) amounted to 7140 pM and the WB/IL-2 IC50 (human whole blood) is 5550 pM. The same molecule registered a Kv1.1 IC50 (IonWorks electrophysiology) in assay [2] of 549 pM.

In assay [1], GVIINVKCKISRQCLEPCKKAGMRFGKCENGKCHCTPK (modifications not checked) [OSK1 M29E] displayed a Kv1.3 IC50 (IonWorks electrophysiology) of more than 3330 pM, a WB/IFNg IC50 (human whole blood) of 24600 pM and a WB/IL-2 IC50 (human whole blood) of 27100 pM. Also, the Kv1.1 IC50 (IonWorks electrophysiology) in assay [2] was more than 3330 pM.

In the case of GVIINVKCKISAQCLKPCKDAGMRFGKCMNGKCHCTPK (modifications not checked) [OSK1 peptide analog R12A, E16K, K20D], in assay [3], the WB/IFNg (IC50, nM); human whole blood came out at 0.092 nM and the WB/IL-2 (IC50, nM); human whole blood is 0.041 nM.

In assay [1], GVIINVKCKISRECLEPCKKAGMRFGKCMNGKCHCTPK (modifications not checked) [OSK1 Q13E] showed a Kv1.3 IC50 (IonWorks electrophysiology) of 45.9 pM, a WB/IFNg IC50 (human whole blood) of 799 pM and a WB/IL-2 IC50 (human whole blood) of 1060 pM. In assay [2], the Kv1.1 IC50 (IonWorks electrophysiology) stood at 6.28 pM.

In assay [1], GVIINVKCKISRQCLEPCKKAGMRFGKCMNGKCHCEPK (modifications not checked) [OSK1 T36E] displayed a Kv1.3 IC50 (IonWorks electrophysiology) of 161 pM, a WB/IFNg IC50 (human whole blood) of 2420 pM and a WB/IL-2 IC50 (human whole blood) of 1740 pM. The molecule also displayed a Kv1.1 IC50 (IonWorks electrophysiology) in assay [2] of more than 3330 pM.

Consider GVIINVKCKISRQCLEPCKKEGMRFGKCMNGKCHCTPK (modifications not checked) [OSK1 A21E], for which, in assay [1], the Kv1.3 IC50 (IonWorks electrophysiology) was 7.37 pM, the WB/IFNg IC50 (human whole blood) turned out to be 138 pM and the WB/IL-2 IC50 (human whole blood) is 117 pM. Besides, the Kv1.1 IC50 (IonWorks electrophysiology) in assay [2] is less than 1.52 pM.

In assay [1], GVIINVKCKISRQCLEPCKKAGMRFGKCMNGKCHCTEK (modifications not checked) [OSK1 P37E] yielded a Kv1.3 IC50 (IonWorks electrophysiology) of 62.7 pM, a WB/IFNg IC50 (human whole blood) of 1600 pM and a WB/IL-2 IC50 (human whole blood) of 239 pM. This molecule gave a Kv1.1 IC50 (IonWorks electrophysiology) in assay [2] of 622 pM.

Regarding GVIINVKCKISRQCLEPCKKAGMRFGKCMNGKCHCTPE (modifications not checked) [OSK1 K38E], in assay [1], the Kv1.3 IC50 (IonWorks electrophysiology) was 25.8 pM, the WB/IFNg IC50 (human whole blood) was found to be 713 pM and the WB/IL-2 IC50 (human whole blood) turned out to be 526 pM. Further, in assay [2], the Kv1.1 IC50 (IonWorks electrophysiology) was found to be 34.3 pM.

For the molecule GVIINVKCKISRQCLEPCKKAGMRFGKCMNGKCECTPK (modifications not checked) [OSK1 H34E], in assay [1], the Kv1.3 IC50 (IonWorks electrophysiology) was 330 pM, the WB/IFNg IC50 (human whole blood) is 2380 pM and the WB/IL-2 IC50 (human whole blood) came to 1620 pM. Moreover, the Kv1.1 IC50 (IonWorks electrophysiology) in assay [2] was 1690 pM.

In assay [3], GVIINVKCKISRQCLEPCKKAGMRFGACMNGKCHCTPK (modifications not checked) [OSK1 peptide analog K27A] registered a Kv1.3 (IC50, pM); whole cell patch clamp ePhys of 289 pM and a Kv1.3 Selectivity (=Kv1.1/Kv.3 IC50) of 35 fold.

In assay [1], GVIINVKCKISRQCLEPCKKAGMRFGKCMNGECHCTPK (modifications not checked) [OSK1 K32E] came in with a Kv1.3 IC50 (IonWorks electrophysiology) of 15.6 pM, a WB/IFNg IC50 (human whole blood) of 63 pM and a WB/IL-2 IC50 (human whole blood) of 62 pM. For the same molecule, the Kv1.1 IC50 (IonWorks electrophysiology) in assay [2] was found to be 17.3 pM.

With GVIINVKCEISRQCLEPCKKAGMRFGKCMNGKCHCTPK (modifications not checked) [OSK1 K9E], in assay [1], the Kv1.3 IC50 (IonWorks electrophysiology) came to 31.8 pM, the WB/IFNg IC50 (human whole blood) is 171 pM and the WB/IL-2 IC50 (human whole blood) is 179 pM. Also, the Kv1.1 IC50 (IonWorks electrophysiology) in assay [2] was 111 pM.

On to GVIINVKCKISRQCLEPCKKAGMRFGKCMNEKCHCTPK (modifications not checked) [OSK1 G31E], for which, in assay [1], the Kv1.3 IC50 (IonWorks electrophysiology) worked out at 12 pM, the WB/IFNg IC50 (human whole blood) worked out at 111 pM and the WB/IL-2 IC50 (human whole blood) is 95 pM. For the same molecule, the Kv1.1 IC50 (IonWorks electrophysiology) in assay [2] stood at 2.37 pM.

For GVIINVKCKISRQCLEPCKKAGMREGKCMNGKCHCTPK (modifications not checked) [OSK1 F25E], the Kv1.3 IC50 (IonWorks electrophysiology) in assay [1] was more than 3330 pM. In assay [2], this molecule showed a Kv1.1 IC50 (IonWorks electrophysiology) of more than 3330 pM.

With GVIINVKCKISRQCEEPCKKAGMRFGKCMNGKCHCTPK (modifications not checked) [OSK1 L15E], in assay [1], the Kv1.3 IC50 (IonWorks electrophysiology) is 47.5 pM, the WB/IFNg IC50 (human whole blood) stood at 1060 pM and the WB/IL-2 IC50 (human whole blood) was determined as 785 pM. In assay [2], this molecule registered a Kv1.1 IC50 (IonWorks electrophysiology) of 436 pM.

For the molecule GVIINVECKISRQCLEPCKKAGMRFGKCMNGKCHCTPK (modifications not checked) [OSK1 K7E], in assay [1], the Kv1.3 IC50 (IonWorks electrophysiology) was 14.2 pM, the WB/IFNg IC50 (human whole blood) is 68 pM and the WB/IL-2 IC50 (human whole blood) worked out at 58 pM. Moreover, the Kv1.1 IC50 (IonWorks electrophysiology) in assay [2] is less than 1.52 pM.

In assay [1], GVIINVKCKISRQCLEPCKKAGMRFEKCMNGKCHCTPK (modifications not checked) [OSK1 G26E] came in with a Kv1.3 IC50 (IonWorks electrophysiology) of more than 3330 pM, a WB/IFNg IC50 (human whole blood) of 100000 pM and a WB/IL-2 IC50 (human whole blood) of 100000 pM. The molecule further gave a Kv1.1 IC50 (IonWorks electrophysiology) in assay [2] of more than 3330 pM.

Take GVIINVKCKISRQCLEECKKAGMRFGKCMNGKCHCTPK (modifications not checked) [OSK1 P17E]: in assay [1], the Kv1.3 IC50 (IonWorks electrophysiology) was 14.5 pM, the WB/IFNg IC50 (human whole blood) came to 947 pM and the WB/IL-2 IC50 (human whole blood) is 520 pM. This molecule registered a Kv1.1 IC50 (IonWorks electrophysiology) in assay [2] of 1.81 pM.

For the molecule GVIIEVKCKISRQCLEPCKKAGMRFGKCMNGKCHCTPK (modifications not checked) [OSK1 N5E], in assay [1], the Kv1.3 IC50 (IonWorks electrophysiology) is 23.4 pM, the WB/IFNg IC50 (human whole blood) is 65 pM and the WB/IL-2 IC50 (human whole blood) was determined as 100 pM. The molecule also returned a Kv1.1 IC50 (IonWorks electrophysiology) in assay [2] of 4.44 pM.

In assay [1], GVIINVKCKESRQCLEPCKKAGMRFGKCMNGKCHCTPK (modifications not checked) [OSK1 I10E] came in with a Kv1.3 IC50 (IonWorks electrophysiology) of 120 pM, a WB/IFNg IC50 (human whole blood) of 2740 pM and a WB/IL-2 IC50 (human whole blood) of 2570 pM. In addition, in assay [2], the Kv1.1 IC50 (IonWorks electrophysiology) stood at 33.5 pM.
